Drawing on ChEMBL document CHEMBL1131418, “Antiviral oligo- and polyribonucleotides containing selected triazolo[2,3-a]purines” (J Med Chem, 1998), this text covers CD50 for three molecules.

Bounds are passed on as bounds.

The assay relates to CEM-SS. The experiment in a line: Cytotoxic dose for anti-HIV activity against HIV-IIIB in CEM-SS cells. Type of assay: functional. Conditions: Homo sapiens.
Take `Cn1cnc2c(ncn2[C@@H]2O[C@H](COP(C)(=O)O)[C@@H](OP(C)(=O)O)[C@H]2O)c1=S`: the CD50 is > 1 µM.
Next, `CO[C@@H]1[C@H](OP(C)(=O)O)[C@@H](COP(C)(=O)O)O[C@H]1n1cnc2c(=S)n3ncn(C)c3nc21`: > 7 µM.
Then `Cn1cnn2c(=O)c3ncn([C@@H]4O[C@H](COP(C)(=O)O)[C@@H](OP(C)(=O)O)[C@H]4O)c3nc12`, with > 2.5 µM.
